Results of unrelated studies side by side (data: NIAID ChemDB).

All rows: growth or infection tests; agent: Vaccinia virus; measure: inhibition

Blank or dashed fields: not listed here. Percent inhibition refers to the dose given; in toxicity tests it is the harm to the cells. Lines come from different laboratories, so protocols vary.

{"structure": "CO[C@H]1/C=C/O[C@@]2(C)Oc3c(C)c(O)c4c(O)c(c(/C=N/NC(=O)CN5CCN(c6ccc(Br)cc6)CC5)c(O)c4c3C2=O)NC(=O)/C(C)=C\\C=C\\[C@H](C)[C@H](O)[C@@H](C)[C@@H](O)[C@@H](C)[C@H](OC(C)=O)[C@@H]1C", "tested at": "50 µg/mL", "cell line": "L929", "result": "0%"}
{"structure": "Cc1ccc2ncc3c(=O)n(-c4ccc(Br)cc4)[nH]c3c2c1", "tested at": "100 µM", "cell line": "BSC-40", "strain or isolate": "WR", "result": "42%"}
{"structure": "CCc1ccc(N2CCN(CC(=O)N/N=C/c3c4c(O)c5c(O)c(C)c6c(c5c3O)C(=O)[C@@](C)(O/C=C/[C@H](OC)[C@@H](C)[C@@H](OC(C)=O)[C@H](C)[C@H](O)[C@H](C)[C@@H](O)[C@@H](C)/C=C/C=C(/C)C(=O)N4)O6)CC2)cc1", "tested at": "50 µg/mL", "cell line": "L929", "result": "0%"}
{"structure": "N=c1ncn(Cc2ccco2)c2nc[nH]c12", "tested at": "100 µg/mL", "cell line": "BSC-1", "result": "0%"}
{"structure": "Cc1ccc2c(c1)c1nn(-c3ccc(F)cc3)c(=O)c-1cn2C1O[C@H](CO)[C@@H](O)[C@H]1O", "tested at": "100 µM", "cell line": "BSC-40", "strain or isolate": "WR", "result": "18%"}
{"structure": "CO[C@H]1/C=C/O[C@@]2(C)Oc3c(C)c(O)c4c(O)c(c(/C=N/NC(=O)CN5CCN(c6ccc(Oc7ccccc7)cc6)CC5)c(O)c4c3C2=O)NC(=O)/C(C)=C\\C=C\\[C@H](C)[C@H](O)[C@@H](C)[C@@H](O)[C@@H](C)[C@H](OC(C)=O)[C@@H]1C", "tested at": "50 µg/mL", "cell line": "L929", "result": "0%"}
{"structure": "Cn1cc(NC(=O)c2cc(NC(=O)c3cc(NC=O)cn3C)cn2C)cc1C(=O)NCCC(=N)N", "tested at": "50 µg/mL", "cell line": "BSC-1", "strain or isolate": "Noguchi", "result": "100%"}
{"structure": "COc1ccc(N2CCN(CC(=O)N/N=C/c3c4c(O)c5c(O)c(C)c6c(c5c3O)C(=O)[C@@](C)(O/C=C/[C@H](OC)[C@@H](C)[C@@H](OC(C)=O)[C@H](C)[C@H](O)[C@H](C)[C@@H](O)[C@@H](C)/C=C/C=C(/C)C(=O)N4)O6)CC2)cc1", "tested at": "50 µg/mL", "cell line": "L929", "result": "0%"}
{"structure": "Cc1ccccc1Cn1cnc(=N)c2[nH]cnc21", "tested at": "25 µg/mL", "cell line": "BSC-1", "result": "0%"}
{"structure": "Cc1ccc2ncc3c(=O)n(-c4ccccc4)[nH]c3c2c1", "tested at": "100 µM", "cell line": "BSC-40", "strain or isolate": "WR", "result": "47%"}
{"structure": "CO[C@H]1/C=C/O[C@@]2(C)Oc3c(C)c(O)c4c(O)c(c(/C=N/NC(=O)CN5CCN(c6ccc(C)cc6)CC5)c(O)c4c3C2=O)NC(=O)/C(C)=C\\C=C\\[C@H](C)[C@H](O)[C@@H](C)[C@@H](O)[C@@H](C)[C@H](OC(C)=O)[C@@H]1C", "tested at": "50 µg/mL", "cell line": "L929", "result": "0%"}
{"structure": "Cc1ccc2c(c1)c1nn(-c3ccc(Cl)cc3)c(=O)c-1cn2C1O[C@H](CO)[C@@H](O)[C@H]1O", "tested at": "100 µM", "cell line": "BSC-40", "strain or isolate": "WR", "result": "8%"}
{"structure": "CCCCn1cnc(=N)c2[nH]cnc21", "tested at": "25 µg/mL", "cell line": "BSC-1", "result": "0%"}
{"structure": "CN1C(=O)NC(=O)N([C@H]2C[C@H](O)[C@@H](CO)O2)C1(C)C", "tested at": "50 µM", "cell line": "VERO", "result": "38%"}
{"structure": "O=c1c2cn(C3O[C@H](CO)[C@@H](O)[C@H]3O)c3cc(F)ccc3c-2nn1-c1ccc(F)cc1", "tested at": "100 µM", "cell line": "BSC-40", "strain or isolate": "WR", "result": "9%"}
{"structure": "CO[C@H]1/C=C/O[C@@]2(C)Oc3c(C)c(O)c4c(O)c(c(/C=N/NC(=O)CN5CCN(c6ccc([N+](=O)[O-])cc6)CC5)c(O)c4c3C2=O)NC(=O)/C(C)=C\\C=C\\[C@H](C)[C@H](O)[C@@H](C)[C@@H](O)[C@@H](C)[C@H](OC(C)=O)[C@@H]1C", "tested at": "50 µg/mL", "cell line": "L929", "result": "0%"}
{"structure": "Cc1ccc2c(c1)c1nn(-c3ccc(Br)cc3)c(=O)c-1cn2C1O[C@H](CO)[C@@H](O)[C@H]1O", "tested at": "100 µM", "cell line": "BSC-40", "strain or isolate": "WR", "result": "10%"}
{"structure": "N=c1ncn(Cc2ccc(Cl)cc2Cl)c2nc[nH]c12", "tested at": "6 µg/mL", "cell line": "BSC-1", "result": "0%"}
{"structure": "CO[C@H]1/C=C/O[C@@]2(C)Oc3c(C)c(O)c4c(O)c(c(/C=N/NC(=O)CN5CCN(c6ccc(C(C)C)cc6)CC5)c(O)c4c3C2=O)NC(=O)/C(C)=C\\C=C\\[C@H](C)[C@H](O)[C@@H](C)[C@@H](O)[C@@H](C)[C@H](OC(C)=O)[C@@H]1C", "tested at": "50 µg/mL", "cell line": "L929", "result": "0%"}
{"structure": "Cn1cc(NC(=O)c2cc(NC(=O)c3cc(NC(=O)c4cc(NC(=O)c5cc(NC=O)cn5C)cn4C)cn3C)cn2C)cc1C(=O)NCCC(=N)N", "tested at": "25 µg/mL", "cell line": "BSC-1", "strain or isolate": "Noguchi", "result": "57%"}
{"structure": "CCCn1cnc(=N)c2[nH]cnc21", "tested at": "100 µg/mL", "cell line": "BSC-1", "result": "0%"}

A second listing of 2 rows from above:

structure | tested at | cell line | strain or isolate | result
Cn1cc(NC(=O)c2cc(NC(=O)c3cc(NC=O)cn3C)cn2C)cc1C(=O)NCCC(=N)N | 50 µg/mL | BSC-1 | Noguchi | 100%
CO[C@H]1/C=C/O[C@@]2(C)Oc3c(C)c(O)c4c(O)c(c(/C=N/NC(=O)CN5CCN(c6ccc(Oc7ccccc7)cc6)CC5)c(O)c4c3C2=O)NC(=O)/C(C)=C\C=C\[C@H](C)[C@H](O)[C@@H](C)[C@@H](O)[C@@H](C)[C@H](OC(C)=O)[C@@H]1C | 50 µg/mL | L929 |  | 0%